Consider one substance from article PMC3203990 (The FEBS journal, 2011).

Usually Km stands for the substrate concentration at which the rate is half of its maximum. The kcat is the number of substrate molecules converted per active site and unit of time at saturation.

For this data set, the system named is O=[N+]([O-])c1ccc(OP(=O)(O)O)cc1. Briefly: purified protein. Conditions: 0.2 M sodium acetate, 1 mM MgCl2, pH 5.5, 25 °C.

With “rP4 (recombinant Haemophilus influenzae e (P4) class C acid phosphatase) (Haemophilus influenzae Rd KW20)”, the Km was determined as 120 ± 20 µM and the kcat was found to be 3.3 ± 0.1 s⁻¹.
